Values of other authors in PMC6470885 (Molecules, 2019).

Conditions: rat, in vivo; cited from earlier work

For Albuvirtide, the “half-life (t1/2)” value is given as 25.8 h.
